Measured values from several laboratories, pooled; numbers as filed in NIAID ChemDB.

All rows: whole-cell or culture tests; agent: Mycobacterium tuberculosis

ECn: concentration that inhibits the pathogen or its effect by n%.

| SMILES | measure | dose | read by | strain | result |
|---|---|---|---|---|---|
| COC(=O)C(=O)C(C(=O)c1ccc(F)cc1)c1nc2n(c1O)C(=N)N=N2 | MIC bound |  | resazurin | H37Rv | >6.25 µg/mL |
| CCN(CCS(=O)(=O)O)c1ccc(N)cc1.Cl | MIC |  |  | H37Rv | >100 µg/mL |
| N#CC1(c2nc3ccccc3o2)C(=O)C(=O)N(C2C3CC4CC(C3)CC2C4)C(=O)C1=O | MIC bound |  | resazurin | H37Rv | <6.25 µg/mL |
| CO[C@H]1/C=C/O[C@@]2(C)Oc3c(C)c(O)c4c(O)c(c(/C=N/N5CCN(C/C=C/c6ccccc6)CC5)c(O)c4c3C2=O)NC(=O)/C(C)=C\C=C\[C@H](C)[C@H](O)[C@@H](C)[C@@H](O)[C@@H](C)[C@H](OC(C)=O)[C@@H]1C | MIC |  |  | 2749 (rifampin-sensitive) | 0.1 µg/mL |
| CCC(C)(C)c1ccc(Oc2cccc(C(=O)Nc3c(C)cc(C)cc3O)c2)cc1 | MIC |  |  | H37Rv | >100 µg/mL |
| COc1ccc(C2Oc3c(I)cccc3C(=O)C2O)cc1 | EC50 |  |  | H37Rv | >12.5 µg/mL |
| CC(=O)Nc1ccc(S2=Nc3ccccc3S2)cc1 | inhibition | 6.25 µg/mL | BACTEC | H37Rv | 0% |
| O=C(O)c1cc(Br)c(O)c(Br)c1 | MIC |  |  | H37Rv | 100 µg/mL |
| S=C(S)NCCN1CCNC1=S | inhibition | 6.25 µg/mL | resazurin | H37Rv | 57% |
| O=C(O)c1cc(O)c(O)c(O)c1 | MIC |  |  | H37Rv | >100 µg/mL |
| CO[C@H]1/C=C/O[C@@]2(C)Oc3c(C)c(O)c4c(=O)c(c5oc6cc(N7CCN(CC(C)C)CC7)cc(=O)c6nc5c4c3=C2O)NC(=O)/C(C)=C\C=C\[C@H](C)[C@H](O)[C@@H](C)[C@@H](O)[C@@H](C)[C@H](OC(C)=O)[C@@H]1C | MIC |  |  | 33 (rifampin-resistant) | 0.05 µg/mL |
| C[N+](C)(CCCCCCCCCCOc1ccccc1)CCCCCCCCCCOc1ccccc1.[Br-] | MIC |  |  | H37Rv | 25 µg/mL |
| CC(=O)OC[C@H]1O[C@@H](Oc2cc(OC(C)=O)c3c(=O)cc(-c4ccc(OC(C)=O)cc4)oc3c2C2C(=O)c3c(OC(C)=O)cc(OC(C)=O)cc3OC2c2ccc(OC(C)=O)cc2)[C@H](OC(C)=O)[C@@H](OC(C)=O)[C@@H]1OC(C)=O | inhibition | 12.5 µg/mL |  |  | 0% |
| CO[C@H]1[C@@H](O)c2coc3c2[C@](C)(c2ccc4c(c2C3=O)CCC4=O)[C@H]1O | inhibition | 12.5 µg/mL | BACTEC | H37Rv | 35% |
| COc1ccc(C(=O)/C=C/c2cccnc2)cc1 | inhibition | 12.5 µg/mL |  | H37Rv | 0% |
| Cn1cc2ccc([N+](=O)[O-])cc2n1 | MIC |  |  | H37Rv | >100 µg/mL |
| Nc1nc(-c2ccccc2)c(-c2ccccc2)nc1C(=O)NCc1ccccc1 | inhibition | 12.5 µg/mL | BACTEC | H37Rv | 18% |
| O=C1CC(c2ccccc2)Oc2ccc(F)cc21 | EC50 |  |  |  | >12.5 µg/mL |

Repeating the final 2 entries:

SMILES,measure,dose,read by,strain,result
Nc1nc(-c2ccccc2)c(-c2ccccc2)nc1C(=O)NCc1ccccc1,inhibition,12.5 µg/mL,BACTEC,H37Rv,18%
O=C1CC(c2ccccc2)Oc2ccc(F)cc21,EC50,,,,>12.5 µg/mL

MIC bound: limit read from a one-dose screen. Neighbouring rows are from separate reports. Percent inhibition refers to the dose given; in toxicity tests it is the harm to the cells. Blank or dashed fields: not listed here.